Sequences of proteins named here, by UniProt entry; tags and fusion partners are left off. Residues count along the entry.
UniProt P27958, 1027-1657 limits assumed: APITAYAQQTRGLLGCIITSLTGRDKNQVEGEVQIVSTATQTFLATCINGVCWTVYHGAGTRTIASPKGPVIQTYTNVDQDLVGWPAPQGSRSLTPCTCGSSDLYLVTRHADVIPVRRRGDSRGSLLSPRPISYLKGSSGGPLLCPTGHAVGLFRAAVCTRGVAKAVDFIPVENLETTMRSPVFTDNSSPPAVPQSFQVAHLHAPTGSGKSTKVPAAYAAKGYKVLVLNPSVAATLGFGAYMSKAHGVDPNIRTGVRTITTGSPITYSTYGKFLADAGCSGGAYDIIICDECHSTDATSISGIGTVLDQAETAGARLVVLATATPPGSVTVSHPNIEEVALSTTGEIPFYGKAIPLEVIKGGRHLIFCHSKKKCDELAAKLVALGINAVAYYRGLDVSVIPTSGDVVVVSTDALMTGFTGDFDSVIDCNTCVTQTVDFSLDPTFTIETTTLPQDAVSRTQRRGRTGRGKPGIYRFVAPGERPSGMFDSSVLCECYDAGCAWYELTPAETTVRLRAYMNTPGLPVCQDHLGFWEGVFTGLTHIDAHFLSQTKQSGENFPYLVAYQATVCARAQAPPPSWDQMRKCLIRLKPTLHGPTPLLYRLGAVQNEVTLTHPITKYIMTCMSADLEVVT
UniProt P27958, 1658-1711 partner limits assumed: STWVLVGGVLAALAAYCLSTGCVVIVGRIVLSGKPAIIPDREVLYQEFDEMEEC

In patent US7425576B2, “Compounds as inhibitors of hepatitis C virus NS3 serine protease” (Schering Corporation, priority 2004, dated 2008):

Target: Recombinant heterodimeric HCV NS3/NS4A protease (strain 1a) (Hepatitis C virus genotype 1a, UniProt P27958)
Test: Spectrophotometric assay for HCV protease inhibitory activity (chromogenic ester substrates)
Conditions: Table 2, Ki* range class
From the text: The present invention relates to novel HCV protease inhibitors. This utility can be manifested in their ability to inhibit the HCV NS2/NS4a serine protease.
Assay for HCV Protease Inhibitory Activity:
Spectrophotometric Assay: Spectrophotometric assay for the HCV serine protease can be performed on the inventive compounds by following the procedure described by R. Zhang et al, Analytical Biochemistry, 270 (1999) 268-275, the disclosure of which is incorporated herein by reference. The assay based on the proteolysis of chromogenic ester substrates is suitable for the continuous monitoring of HCV NS3 protease activity. The substrates are derived from the P side of the NS5A-NS5B junction sequence (Ac-DTEDVVX(Nva), where X=A or P) whose C-terminal carboxyl groups are esterified with one of four different chromophoric alcohols (3- or 4-nitrophenol, 7-hydroxy-4-methyl-coumarin, or 4-phenylazophenol). Illustrated below are the synthesis, characterization and application of these novel spectrophotometric ester substrates to high throughput screening and detailed kinetic evaluation of HCV NS3 protease inhibitors.
Enzyme Preparation: Recombinant heterodimeric HCV NS3/NS4A protease (strain 1a) is prepared by using the procedures published previously (D. L. Sali et al, Biochemistry, 37 (1998) 3392-3401). Protein concentrations are determined by the Biorad dye method using recombinant HCV protease standards previously quantified by amino acid analysis. Prior to assay initiation, the enzyme storage buffer (50 mM sodium phosphate pH 8.0, 300 mM NaCl, 10% glycerol, 0.05% lauryl maltoside and 10 mM DTT) is exchanged for the assay buffer (25 mM MOPS pH 6.5, 300 mM NaCl, 10% glycerol, 0.05% lauryl maltoside, 5 μM EDTA and 5 μM DTT) utilizing a Biorad Bio-Spin P-6 prepacked column.
Protease Assay: HCV protease assays are performed at 30° C. using a 200 μl reaction mix in a 96-well microtiter plate. Assay buffer conditions (25 mM MOPS pH 6.5, 300 mM NaCl, 10% glycerol, 0.05% lauryl maltoside, 5 μM EDTA and 5 μM DTT) are optimized for the NS3/NS4A heterodimer (D. L. Sali et al, ibid.)). Typically, 150 μl mixtures of buffer, substrate and inhibitor are placed in wells (final concentration of DMSO≦4% v/v) and allowed to preincubate at 30° C. for approximately 3 minutes. Fifty μls of prewarmed protease (12 nM, 30° C.) in assay buffer, is then used to initiate the reaction (final volume 200 μl).The plates are monitored over the length of the assay (60 minutes) for change in absorbance at the appropriate wavelength (340 nm for 3-Np and HMC, 370 nm for PAP, and 400 nm for 4-Np) using a Spectromax Plus microtiter plate reader equipped with a monochrometer (acceptable results can be obtained with plate readers that utilize cutoff filters). Proteolytic cleavage of the ester linkage between the Nva and the chromophore is monitored at the appropriate wavelength against a no enzyme blank as a control for non-enzymatic hydrolysis. The evaluation of substrate kinetic parameters is performed over a 30-fold substrate concentration range (˜6-200 μM). Initial velocities are determined using linear regression and kinetic constants are obtained by fitting the data to the Michaelis-Menten equation using non-linear regression analysis (Mac Curve Fit 1.1, K. Raner). Turnover numbers (kcat) are calculated assuming the enzyme is fully active.
Evaluation of Inhibitors and Inactivators: The inhibition constants (Ki) for the competitive inhibitors Ac-D-(D-Gla)-L-I-(Cha)-C—OH (27), Ac-DTEDVVA(Nva)-OH and Ac-DTEDVVP(Nva)-OH are determined experimentally at fixed concentrations of enzyme and substrate by plotting vo/vi vs. inhibitor concentration ([I]o) according to the rearranged Michaelis-Menten equation for competitive inhibition kinetics: vo/vi=1+[I]o/(Ki(1+[S]o/Km)), where vo is the uninhibited initial velocity, vi is the initial velocity in the presence of inhibitor at any given inhibitor concentration ([I]o) and [S]o is the substrate concentration used.

Row | Compound | Ki [nM]
1 | CC(C)(C)[C@@H](COC(=O)NCC1CC1)NC(=O)N[C@H](C(=O)N1C[C@H]2[C@@H]([C@H]1C(=O)NC(CCC1CC1)C(=O)C(=O)NC1CC1)C2(C)C)C1(C)CCCCC1 (single isomer, unassigned) | < 75
2 | CC(C)NC(=O)OC[C@@H](NC(=O)N[C@H](C(=O)N1C[C@H]2[C@@H]([C@H]1C(=O)NC(CC1CC1)C(=O)C(N)=O)C2(C)C)C(C)(C)C)C(C)(C)C (stereo partly drawn) | > 250
3 | C=CCNC(=O)C(=O)C(CCC)NC(=O)[C@@H]1[C@@H]2[C@H](CN1C(=O)[C@@H](NC(=O)N[C@H](COC(=O)OCC1CC1)C(C)(C)C)C(C)(C)C)C2(C)C (stereo partly drawn) | < 75
4 | C#CCCC(NC(=O)[C@@H]1[C@@H]2[C@H](CN1C(=O)[C@@H](NC(=O)N[C@H](COC(=O)NCC1CC1)C(C)(C)C)C1(C)CCCCC1)C2(C)C)C(=O)C(=O)NCCC (stereo partly drawn) [Example 1117] | 75 to 250
5 | CC(C)(C)[C@H](NC(=O)N[C@H](COC(=O)NCc1ccccc1)C(C)(C)C)C(=O)N1C[C@H]2[C@@H]([C@H]1C(=O)NC(CC1CC1)C(=O)C(N)=O)C2(C)C (stereo partly drawn) | 75 to 250
6 | COC(=O)OC[C@@H](NC(=O)N[C@H](C(=O)N1C[C@H]2[C@@H]([C@H]1C(=O)NC(CC1CC1)C(=O)C(N)=O)C2(C)C)C(C)(C)C)C1CCCC1 (stereo partly drawn) | < 75
